Anti-infective test results gathered from many reports (values: NIAID ChemDB through PubChem).

All rows: tests in culture; species: Hepatitis C virus; cells: Huh7; measure: inhibition

Neighbouring rows are from separate reports.

smiles | strain or isolate | read by | conditions | dose | result
CCn1cc(CN2CCC(C(=O)Nc3cccc(-c4cccc(Cl)c4)c3)CC2)cn1 | JFH-1 | PCR | - | 5 µM | ≥40%
COc1cc(Cc2cnc(/N=C3\C(=O)N(CN4CCCC4)c4ccc(C)cc43)nc2N)cc(OC)c1OC | - | - | - | 50 µg/mL | 90%
CCCn1ncc(CN2CCC(C(=O)Nc3ccc(Oc4ccccc4F)cc3)CC2)c1C | JFH-1 | PCR | - | 15 µM | ≥40%
O=C1NC(=Nc2nnc(-c3c(F)cccc3Cl)s2)SC1=Cc1c(Cl)cccc1Cl | GT1b | luciferase | - | 50 µM | 84%
Nc1ccn([C@@H]2O[C@H](CO)[C@@H](O)[C@H]2F)c(=O)n1 | - | replicon | - | 5 µM | 90%
N#Cc1c(SCc2ccncc2)sc2c(=O)[nH]c(=O)[nH]c12 | GT1b | luciferase / reporter gene | - | 50 µM | 38%
COc1cc(Cc2cnc(/N=C3\C(=O)N(CN4CCN(Cc5ccccc5)CC4)c4ccc(F)cc43)nc2N)cc(OC)c1OC | - | - | - | 50 µg/mL | 97%
O=C1CSC(=Nc2nnc(-c3c(F)cccc3Cl)s2)N1 | GT1b | luciferase | - | 50 µM | 34%
CCn1cc(C(=O)O)c(=O)c2c(F)c(N3CCN(CN4C(=O)/C(=N\c5ncc(Cc6cc(OC)c(OC)c(OC)c6)c(N)n5)c5cc(C)ccc54)C(C)C3)c(F)cc21 | - | - | - | 50 µg/mL | 92%
CC1(C)CC[C@@]2(C(=O)NCc3cn(CCCCCCn4cc(CNC(=O)[C@]56CCC(C)(C)CC5C5=CCC7[C@@]8(C)CC[C@H](O)C(C)(C)C8CC[C@@]7(C)[C@]5(C)C[C@H]6O)nn4)nn3)C(C1)C1=CCC3[C@@]4(C)CC[C@H](O)C(C)(C)C4CC[C@@]3(C)[C@]1(C)C[C@H]2O | - | luciferase / entry | - | 1 µM | 72.7%
COc1cccc(CN2CCC(C(=O)Nc3ccccc3-c3cccc(OC)c3)CC2)c1 | JFH-1 | PCR | - | 15 µM | ≥40%
O=C1NC(=Nc2nnc(-c3c(Cl)cccc3Cl)s2)SC1=Cc1c(Cl)cccc1Cl | GT1b | luciferase | - | 50 µM | 88%
COc1cc(Cc2cnc(/N=C3\C(=O)N(CN4CCN(c5c(OC)cc6c(c5F)c(=O)c(C(=O)O)cn6C5CC5)CC4C)c4ccc(C)cc43)nc2N)cc(OC)c1OC | - | - | - | 50 µg/mL | 65%
CC1(C)CC[C@@]2(C(=O)NCc3cn(CCCCCn4cc(CNC(=O)[C@]56CCC(C)(C)CC5C5=CCC7[C@@]8(C)CC[C@H](O)C(C)(C)C8CC[C@@]7(C)[C@]5(C)C[C@H]6O)nn4)nn3)C(C1)C1=CCC3[C@@]4(C)CC[C@H](O)C(C)(C)C4CC[C@@]3(C)[C@]1(C)C[C@H]2O | - | luciferase / entry | - | 5 µM | 71.9%
COc1cc(Cc2cnc(/N=C3\C(=O)N(CN4CCN(c5ccccc5)CC4)c4ccc(Br)cc43)nc2N)cc(OC)c1OC | - | replicon | - | 50 µg/mL | 4%
O=c1[nH]cnc2c1sc(=S)n2Cc1ccccc1 | GT1b | luciferase / reporter gene | - | 50 µM | 23%
COc1cc(Cc2cnc(/N=C3\C(=O)N(CN4CCN(c5cccc(C(F)(F)F)c5)CC4)c4ccc(C)cc43)nc2N)cc(OC)c1OC | - | - | - | 50 µg/mL | 87%
CC1(C)CC[C@@]2(C(=O)NCCCCCCCCCCCCNC(=O)[C@]34CCC(C)(C)CC3C3=CCC5[C@@]6(C)CC[C@H](O)C(C)(C)C6CC[C@@]5(C)[C@]3(C)C[C@H]4O)C(C1)C1=CCC3[C@@]4(C)CC[C@H](O)C(C)(C)C4CC[C@@]3(C)[C@]1(C)C[C@H]2O | - | luciferase / entry | - | 1 µM | 56.2%
COc1cc(Cc2cnc(/N=C3\C(=O)N(CN4CCN(c5cccc(Cl)c5)CC4)c4ccc(Br)cc43)nc2N)cc(OC)c1OC | - | replicon | - | 50 µg/mL | 20%
Nc1ccn([C@@H]2O[C@H](CO)[C@@H](O)[C@H]2F)c(=O)n1 | - | replicon | - | 5 µM | 90%
CCCC[C@H](NC(=O)[C@@H]1[C@@H]2[C@H](CN1C(=O)[C@@H](NC(=O)NC1(CS(=O)(=O)C(C)(C)C)CCCCC1)C(C)(C)C)C2(C)C)C(=O)C(=O)NC1CC1 | 1b | MTS | - | 0.04 µM | 90%
C=C(C)[C@@H]1CC[C@]2(C(=O)O)CC[C@]3(C)[C@H](CC[C@@H]4[C@@]5(C)CC[C@H](O)C(C)(C)[C@@H]5CC[C@]43C)[C@@H]12 | - | luciferase / entry | pseudotyped | 1 µM | -2%
O=C1NC(=Nc2nnc(-c3ccccc3Cl)s2)SC1=Cc1c(Cl)cccc1Cl | GT1b | luciferase | - | 50 µM | 88%
O=c1[nH]cnc2c1cnn2Cc1ccccc1 | GT1b | luciferase / reporter gene | - | 50 µM | 91%
COc1cc(Cc2cnc(/N=C3\C(=O)N(CN4CCCC4)c4ccc(F)cc43)nc2N)cc(OC)c1OC | - | - | - | 50 µg/mL | 88%
COc1ccccc1N1CCN(CN2C(=O)/C(=N\c3ncc(Cc4cc(OC)c(OC)c(OC)c4)c(N)n3)c3cc(Br)ccc32)CC1 | - | replicon | - | 50 µg/mL | 55%
C[C@H]1[C@H](C)CC[C@]2(C(=O)O)CC[C@]3(C)C(=CC[C@@H]4[C@@]5(C)CC[C@H](O)C(C)(C)[C@@H]5CC[C@]43C)[C@H]12 | - | luciferase / entry | - | 1 µM | 13.8%
CCn1cc(C(=O)O)c(=O)c2cc(F)c(N3CCN(CN4C(=O)/C(=N\c5ncc(Cc6cc(OC)c(OC)c(OC)c6)c(N)n5)c5cc(Br)ccc54)C(C)C3)c(F)c21 | - | replicon | - | 50 µg/mL | 20%
CC(C)n1cc(CN2CCC(C(=O)Nc3cccc(-c4cccc(Cl)c4)c3)CC2)cn1 | JFH-1 | PCR | - | 15 µM | ≥40%
O=C(O)CCn1ncc2c(=O)[nH]cnc21 | GT1b | luciferase / reporter gene | - | 50 µM | 51%
CCN(CC)CN1C(=O)/C(=N\c2ncc(Cc3cc(OC)c(OC)c(OC)c3)c(N)n2)c2cc(Br)ccc21 | - | replicon | - | 50 µg/mL | 24%
CCCN1CCC(C(=O)Nc2ccc(Oc3ccccc3F)cc2)CC1 | JFH-1 | PCR | - | 5 µM | ≥40%
O=C1NC(=Nc2nnc(-c3cccnc3)s2)SC1=Cc1cccc(F)c1 | GT1b | luciferase | - | 50 µM | 69%
COc1cccc(-c2ccccc2NC(=O)C2CCN(Cc3nc(C)c(C)nc3C)CC2)c1 | JFH-1 | PCR | - | 5 µM | ≥40%
COc1cccc(N2CCN(CN3C(=O)/C(=N\c4ncc(Cc5cc(OC)c(OC)c(OC)c5)c(N)n4)c4cc(F)ccc43)CC2)c1 | - | - | - | 50 µg/mL | 100%
CC1(C)CC[C@@]2(C(=O)NCCn3cc(CN(Cc4cn(C(C)(C)C)nn4)Cc4cn(C(C)(C)C)nn4)nn3)C(C1)C1=CCC3[C@@]4(C)CC[C@H](O)C(C)(C)C4CC[C@@]3(C)[C@]1(C)C[C@H]2O | - | luciferase / entry | - | 5 µM | 57.9%
O=C(Nc1cccc(-c2cccc(Cl)c2)c1)C1CCN(Cc2ccc(O)cc2)CC1 | JFH-1 | PCR | - | 15 µM | ≥40%

Repeating the final 4 entries:

smiles	strain or isolate	read by	conditions	dose	result
COc1cccc(-c2ccccc2NC(=O)C2CCN(Cc3nc(C)c(C)nc3C)CC2)c1	JFH-1	PCR	-	5 µM	≥40%
COc1cccc(N2CCN(CN3C(=O)/C(=N\c4ncc(Cc5cc(OC)c(OC)c(OC)c5)c(N)n4)c4cc(F)ccc43)CC2)c1	-	-	-	50 µg/mL	100%
CC1(C)CC[C@@]2(C(=O)NCCn3cc(CN(Cc4cn(C(C)(C)C)nn4)Cc4cn(C(C)(C)C)nn4)nn3)C(C1)C1=CCC3[C@@]4(C)CC[C@H](O)C(C)(C)C4CC[C@@]3(C)[C@]1(C)C[C@H]2O	-	luciferase / entry	-	5 µM	57.9%
O=C(Nc1cccc(-c2cccc(Cl)c2)c1)C1CCN(Cc2ccc(O)cc2)CC1	JFH-1	PCR	-	15 µM	≥40%

Blank or dashed fields: not listed here. Inhibition is in % at the dose shown (toxicity tests: loss of growth or viability).